Anti-infective test results gathered from many reports (values: NIAID ChemDB through PubChem).

Shared fields: host cell toxicity; endpoint: CC50

a–b is a range or a potency band.

smiles,method,cell line,value
Oc1[nH]c2ccc(OC(F)(F)F)cc2c1N=NC(=S)Nc1ccccc1,-,hRD,>25 µM
c1csc(-c2ccc3ncnc(Nc4ccc(N5CCOCC5)cc4)c3c2)c1,-,HUH 9B,>25 µM
C[C@H]1O[C@@H](n2c(NC3CC3)nc3cc(Cl)c(Cl)cc32)[C@H](O)[C@@H]1O,ATP,HSB-2,>100 µM
CCCc1cc(=O)oc2cc(OC(=O)C(C)(C)C)cc(OC(=O)C(C)(C)C)c12,neutral red,CV-1,10 µg/mL
CC(C)N(Cc1cccc(OCCCCCC(=O)OC(=O)O)c1)C(=O)c1ccc(-c2ccco2)cc1,-,BJ,>20 µM
CC(O)Cn1cnc2c(Cl)nc(N)nc21,-,U-937,100 µM
Oc1c(N=NC(=S)Nc2ccccc2)c2ccccc2n1-c1ccccc1,-,hRD,>25 µM
C#CCNC(=O)C(=O)c1cc(C(=O)Nc2ccc(F)c(F)c2)n(C)c1,absorbance,Human hepatocellular carcinoma (HepG2),>100 µM
CCCCCc1ccc(CC#Cc2nc(C(N)=O)nn2COCCO)cc1,-,Huh 5-2,25 µg/mL
COc1ccc(NC(=S)N=Nc2c(O)[nH]c3ccccc23)cc1,-,hRD,>25 µM
CC(C)Cn1cnc2c(N)nc3ccccc3c21,luminescence,CD4+ T-cell,9.6 µM
Oc1c(Oc2ccc(Cl)cc2Cl)ccc(Cl)c1Cc1ccccc1Cl,fluorescence,Human foreskin fibroblasts,>10 µM
Cc1cccc(C)c1NCc1cc2ccccc2oc1=O,MTS,Ava5,152 µM
CCCc1cc(=O)oc2cc(OS(=O)(=O)c3ccc(C)cc3)c3c(c12)OC(C)(C)C=C3,-,CV-1,20 µg/mL
CC(CO)n1cnc2c(Cl)nc(N)nc21,-,U-937,10 µM
O=c1oc2ccccc2cc1CNc1cccc([N+](=O)[O-])c1,MTS,Ava5,>200 µM
Oc1ccc(Oc2ccc(Cl)cc2O)c(Cl)c1,fluorescence,Human foreskin fibroblasts,>10 µM
COc1ccc(NCc2cc3ccccc3oc2=O)cc1,MTS,Ava5,110 µM
Oc1[nH]c2ccccc2c1N=NC(=S)Nc1ccc(Br)cc1,-,hRD,>25 µM
CCC/C(=C/C(=O)OC)c1c(O)c2c(c3c1OC(C)(C)[C@H](O)[C@H]3O)O[C@H](C)[C@@H](C)[C@@H]2O,-,CV-1,15 µg/mL
CCOc1ccc(F)cc1C1(O)C(N)=Nc2ccc(Cl)cc21,-,Erythrocyte,>125 µM
Cc1cccc(-c2ccc(Oc3ccc(Cl)cc3Cl)c(O)c2)c1,fluorescence,Human foreskin fibroblasts,>10 µM
COc1cc(-c2nnnn2S(=O)(=O)c2ccc(C(C)(C)C)cc2)ccc1OCC(O)(Cn1cncn1)c1ccc(F)cc1F,MTT,CHO-K1,67.23 µg/mL
Nc1ccn([C@@H]2O[C@H](CO)[C@@H](O)[C@H]2O)c(=S)n1,-,RPMI8226,>386 µM
COc1cc(-c2nnnn2S(=O)(=O)c2ccc(Br)cc2)ccc1OCC(O)(Cn1cncn1)c1ccc(F)cc1F,MTT,CHO-K1,38.12 µg/mL
N#Cc1ccc(Oc2ccc(-c3ccncc3)cc2O)c(Cl)c1,fluorescence,Human foreskin fibroblasts,>10 µM
CCCCCCCCCCCCCCCCCCOP(=O)(O)OC[C@H]1O[C@@H](N2CCc3c(-c4ccccc4)ncnc32)[C@@H](O)C1O,MTT,Human fibroblasts MRC-5,>50 µM
Nc1ncnc2c1c(-c1ccccc1)cn2[C@@H]1O[C@H](CO)[C@@H](O)[C@H]1F,XTT,Replicon cells,>44 µM
CC1c2ccccc2CN1S(=O)(=O)c1ccc2[nH]c(=O)[nH]c2c1,MTT,MT-2 human T-cells,1.3 µM
CCOC(=O)COc1ccc(C=O)cc1,-,HEK 293,>20 µM
Nc1nc(-c2ccc(NC(=O)CN(Cc3ccncc3)C(=O)C3CCCCC3)cc2)cs1,-,BHK-21/C13,>73 µM
Clc1ccc2ncnc(Nc3ccc(N4CCOCC4)cc3)c2c1,-,HUH 9B,>25 µM
Nc1c(-c2nc(CCl)cc(=O)[nH]2)ncn1[C@@H]1O[C@H](CO)[C@@H](O)[C@H]1O,-,PBL,20 µM
O=C(NCc1ccc(Cl)cc1)c1cn2c(CCO)cc3cc(CN4CCOCC4)cc(c1=O)c32,MTS,HSB-2,>20.8 µM
Nc1ncc2ncn(CCCO)c2n1,-,PBL,>100 µM
c1cc(-c2ccc3ncnc(Nc4ccc(N5CCOCC5)cc4)c3c2)cc(-n2cccn2)c1,-,HUH 9B,10–25 µM
Cn1cc(C(=O)NCc2ccc(Cl)cc2)c(=O)c2cc(CN3CCOCC3)ccc21,MTS,CBL,>23.5 µM
CCCc1cc(=O)oc2cc(O)c(C(=O)CC)c(O)c12,-,CV-1,7 µg/mL
CCCc1cc(=O)[nH]c(SC(C)C(=O)Nc2ccccc2C)n1,MTT,MT-2 human T-cells,>100 µM
Nc1ncnc2c1c(-c1ccco1)cn2[C@@H]1O[C@H](CO)[C@@H](O)[C@H]1F,XTT,Replicon cells,>44 µM
CCOC(=O)CCCCCOc1cccc(CN(C(=O)c2ccc(-c3ccc(Cl)c(Cl)c3)cc2)C(C)C)c1,-,HEK 293,>20 µM
O[C@@H]1[C@H](O)CO[C@H]1n1c(Br)nc2cc(Cl)c(Cl)cc21,ATP,HSB-2,17 µM
c1nc(Nc2ccc(N3CCOCC3)cc2)c2cc(-c3ccc(CN4CCOCC4)o3)ccc2n1,-,HUH 9B,>25 µM
Nc1ncn([C@@H]2O[C@H](CO)[C@@H](O)[C@H]2O)c(=O)n1,ATP / luminescence,U373-MAGI,387 µM
C#Cc1cn([C@@H]2O[C@H](CO)[C@@H](O)[C@H]2F)c2ncnc(N)c12,XTT,Replicon cells,28.92 µM
C=C(C)[C@@H]1CC[C@]2(C(=O)NCCO)CC[C@@]3(C)C(CCC4[C@@]5(C)CC[C@H](O)C(C)(C)C5CC[C@]43C)C12,MTT,MOLT-4/8,4.81 µM
O=c1[nH]c(=S)n([C@H]2C[C@H](O)[C@@H](CO)O2)cc1Br,-,RPMI8226,273 µM
Oc1cc(Cl)ccc1Oc1ccc(NCc2ccccc2)cc1Cl,fluorescence,Human foreskin fibroblasts,>10 µM
Nc1ncnc2c1c(-c1ccoc1)cn2[C@@H]1O[C@H](CO)[C@@H](O)[C@H]1F,XTT,Replicon cells,37.44 µM
CC(C)C1(O)C(N)=Nc2ccc(Cl)cc21,-,Erythrocyte,>178 µM
NC(=O)c1nc(C#CCc2ccccc2)n(COCCO)n1,-,Huh 5-2,>50 µg/mL
COc1cccc(NC(=S)N=Nc2c(O)[nH]c3ccccc23)c1,-,hRD,>25 µM
Nc1nc(=S)n([C@H]2C[C@H](O)[C@@H](CO)O2)cc1Br,-,RPMI8226,293 µM
Oc1cc(Cl)ccc1Oc1ccc(Cl)cc1CNCc1ccc2c(c1)CCO2,fluorescence,Human foreskin fibroblasts,>10 µM
Oc1[nH]c2ccc(Cl)cc2c1N=NC(=S)Nc1ccccc1,-,RD,>25 µM
C=CCCCC(=O)NCC(c1ccc2c(c1)OCO2)C1OCCO1,-,BJ,<7.5 µM
Nc1ncnc2c1c(I)cn2[C@@H]1O[C@H](CO)[C@@H](O)[C@H]1F,XTT,Replicon cells,5.98 µM
NC(=O)c1nc(C#CCC2(O)CCCCC2)n(COCCO)n1,-,Huh 5-2,>50 µg/mL
CC(=O)Nc1ccc(-c2ccc3ncnc(Nc4ccc(N5CCOCC5)cc4)c3c2)cc1,-,HUH 9B,>25 µM
Oc1[nH]c2ccccc2c1N=NC(=S)N1CCCC1,-,hRD,>25 µM
CCCc1cc(=O)oc2cc(OC(=O)C(C)(C)C)c3c(c12)OC(C)(C)C=C3,neutral red,CV-1,2 µg/mL
CCCc1cc(=O)[nH]c(SC(C)C(=O)Nc2cccc(Cl)c2)n1,MTT,MT-2 human T-cells,60 µM
Nc1nc(=S)n([C@@H]2O[C@H](CO)[C@@H](O)[C@@H]2O)cc1F,-,RPMI8226,1098 µM
Nc1ncnc2c1c(-c1cccs1)cn2[C@@H]1O[C@H](CO)[C@@H](O)[C@H]1F,XTT,Replicon cells,18.53 µM
Cc1cccc(NC(=O)N=Nc2c(O)[nH]c3ccccc23)c1,-,hRD,>25 µM
Oc1cc(-c2ccc(F)cc2)ccc1Oc1ccc(Cl)cc1Cl,fluorescence,Human foreskin fibroblasts,>10 µM
COc1ccc(CNC(=O)c2ccc3ncnc(Nc4ccc(N5CCOCC5)cc4)c3c2)cc1,-,HUH 9B,>25 µM
N#Cc1c(Cl)ccc(Oc2ccc(Cl)cc2Cl)c1O,fluorescence,Human foreskin fibroblasts,>10 µM
NC(=O)c1nc(C#CCc2ccc(F)cc2)n(COCCO)n1,-,Huh 5-2,>50 µg/mL
Cc1cn([C@H]2C[C@H](O)[C@@H](CO)O2)c(=S)[nH]c1=O,-,RPMI8226,629 µM
CC(=O)OC1C(OC(C)=O)[C@H](n2cnc3c2ncn2c(CCl)cc(=O)nc32)O[C@@H]1OC(C)=O,-,PBL,150 µM
CC(C)Nc1nc2cc(Cl)c(Cl)cc2n1[C@@H]1OC[C@@H](O)[C@H]1O,ATP,HSB-2,28 µM
COc1cnc(OC)c(C2(O)C(N)=Nc3ccc(Cl)cc32)c1,-,Erythrocyte,>125 µM
Oc1c(Oc2ccc(Cl)cc2Cl)ccc(Cl)c1C(F)F,fluorescence,Human foreskin fibroblasts,>10 µM
OCC1OC(n2c(Br)nc3cc(Cl)c(Cl)cc32)C(O)C1O,ATP,MOLT-3,62 µM
Nc1ncnc2c1c(-c1cccs1)cn2[C@H]1O[C@H](CO)[C@@H](O)C1(F)F,XTT,Replicon cells,18.91 µM
OC[C@H]1CC(n2c(Br)nc3cc(Cl)c(Cl)cc32)[C@H](O)[C@@H]1O,ATP,MOLT-3,32 µM
C#Cc1cn([C@@H]2O[C@H](CO)[C@@H](O)C2(F)F)c2ncnc(N)c12,XTT,Replicon cells,10.94 µM

Lines come from different laboratories, so protocols vary. An empty or dashed field is not shown. CCn is the concentration with n% toxicity to the cells.